These results are taken from patent publication US4948807A, “Phenyl carbamates” (priority 1985, dated 1990).

SMILES strings stand for the structures.

A short description of series [1]: in vivo. As to conditions: mouse, decrease of acute toxicity (lethality) by the antidote atropine. As for the experimental part:
Mice were given one of at least three different doses of each compound, orally or subcutaneously, a minimum of 10 mice allotted to each dose. The number of animals which died at each dose within 3 hours was determined.
This experiment was repeated after the animals had been pretreated with atropine sulphate, which blocks both peripheral and central muscarinic receptors.
What is important is the safety of the drugs and the presence and severity of side effects that may occur at therapeutic doses. A commonly-used measure of drug safety is the therapeutic index--or LD50 /ED50 [formula]
It is assumed that the therapeutic effect of these anticholinesterase agents results from an elevation of brain cholinergic activity. This in turn, should be related to the degree of inhibition of acetylcholinesterase. For the purpose of the computation of the denominator of the therapeutic ratio, there is used the dose of drug that inhibits the activity of acetylcholinesterase by 50%. […] The numerator is the dose found to kill 50% of the animals within […] of a subcutaneous injection.

Series [2] is classed as in vivo, mice. As to conditions: dose which inhibits the brain enzyme by 50%; defaecation, lachrymation, fasciculations, tremor.
The conditions of series [3]: majority of studies in laboratory animals; cited from earlier work.

On to `CNC(=O)Oc1ccc2c(c1)[C@]1(C)CCN(C)[C@@H]1N2C` [Physostigmine, reference compound], for which the selectivity ratio in series [1] worked out at 3. Further, in series [2], the “undesirable side effects at ED50 dose” value is “former 3 side effects are clearly evident”. Moreover, the therapeutic ratio in series [3] was 3-5.
